Values quoted from earlier work in patent publication US11054415B2, “Preparation of bioconjugates and antibodies for the immunodetection of anatoxin-a” (dated 2021).

System: mice

## CC(=O)C1=CCCC2CCC1N2 (stereo not shown)
  Time to death after intraperitoneal injection into mice: less than 5 minutes
